Fold change is the IC50 on the isolate divided by the IC50 on a reference virus; 1 = unchanged, higher = more resistant. Changes are given against the subtype B consensus. No active / inactive call. The values were gathered from many studies (numbered anew) with different assays, which the source does not name. Most viruses are clinical isolates; some are laboratory strains or clones with known resistance changes. Isolates with mixed residues are left out; stretches that were not sequenced show no change. Round top values that many isolates share are read here as limits; other very high values and 0.1 may be limits too.
compound: Cc1cn([C@H]2C[C@H](N=[N+]=[N-])[C@@H](CO)O2)c(=O)[nH]c1=O [zidovudine]; assay: fold change of IC50 against reference virus; higher = more resistant
Description: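 Cell-culture drug susceptibility tests of virus bearing the reverse transcriptase of each isolate, gathered from many studies.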

In order of falling “fold change of IC50 against reference virus” value:
1. HIV-1 isolate 169 (reverse transcriptase changes: M41L I135T E204K L210W T215Y I293V E297K D324P I329L A360V K431N V435A D460N S468P L491S, study 103)  420
2. HIV-1 isolate 975 (reverse transcriptase changes: D67N K122E M184V G196E Q207D L210W R211K T215Y A272P K277R E300Q G333E T338S K347R R356K, study 34)  370
3. HIV-1 isolate 1248 (reverse transcriptase changes: M41L D67N K70R K122E M184V F214L T215Y A272P K277R G333E M357T, study 34)  170
4. HIV-1 isolate 1376 (reverse transcriptase changes: D67N K70R K122E F214L T216F K219Q A272P K277R A376T A400T D460N S468T H483Y K512Q S519N, study 3)  150
5. HIV-1 isolate 1108 (reverse transcriptase changes: D67N K70R I135T S162C R211K T215Y, study 48)  125
6. HIV-1 isolate 1545 (reverse transcriptase changes: D67N K70R K122E F214L T215Y K219Q A272P K277R A376T A400T D460N S468T H483Y K512Q S519N, study 143)  120
7. HIV-1 isolate 1008 (reverse transcriptase changes: M41L D67N K122E M184V H208Y L210W R211K T215Y A272P K277R I293V E297A R356K M357T G359S, study 34)  100
8. HIV-1 isolate 467 (reverse transcriptase changes: M41L K122E L210W F214L T215Y A272P K277R A376T A400T D460N S468T H483Y K512Q S519N, study 103)  71
9. HIV-1 isolate 186 (reverse transcriptase changes: M41L D67N K70R K122E F214L T215Y K219Q A272P K277R A376T A400T D460N S468T H483Y K512Q S519N, study 103)  56
10. HIV-1 isolate 729 (reverse transcriptase changes: D67N K70R K122E F214L T215Y A272P K277R A376T A400T D460N S468T H483Y K512Q S519N, study 143)  31
11. HIV-1 isolate 851 (reverse transcriptase changes: K122E F214L T215Y A272P K277R A376T A400T D460N S468T H483Y K512Q S519N, study 126)  14
12. HIV-1 isolate 956 (reverse transcriptase changes: M41L D67N K70R K122E M184V L210W F214L T215Y A272P K277R A376T A400T D460N S468T H483Y K512Q S519N, study 126)  9
13. HIV-1 isolate 1444 (reverse transcriptase changes: K70R K102Q S162C T215F K219Q K277R, study 98)  8.4
14. HIV-1 isolate 233 (reverse transcriptase changes: D67N K70R L74V K122E F214L T215Y K219Q A272P K277R M357T A376T A400T N447S D460N S468T S519N, study 81)  6.3
15. HIV-1 isolate 1605 (reverse transcriptase changes: K70R K122E F214L T215Y A272P K277R A376T A400T D460N S468T H483Y K512Q S519N, study 143)  6
16. HIV-1 isolate 1397 (reverse transcriptase changes: M41L K122E M184V L210W F214L T215Y A272P K277R A376T A400T D460N S468T H483Y K512Q S519N, study 126)  5
17. HIV-1 isolate 423 (reverse transcriptase changes: M41L K122E F214L A272P K277R A376T A400T D460N S468T H483Y K512Q S519N, study 126)  4
18. HIV-1 isolate 1392 (reverse transcriptase changes: M41L D67N K70R K122E M184V F214L T215Y A272P K277R A376T A400T D460N S468T H483Y K512Q S519N, study 126)  3
19. HIV-1 isolate 358 (reverse transcriptase changes: D67N K70R K122E Q161L F214L T215Y K219Q A272P K277R M357T A376T A400T N447S D460N S468T S519N, study 103)  2
20. HIV-1 isolate 310 (reverse transcriptase changes: M41L K122E M184V F214L T215Y A272P K277R A376T A400T D460N S468T H483Y K512Q S519N, study 126)  2
21. HIV-1 isolate 626 (reverse transcriptase changes: D67N K70R K102Q S162C K277R, study 1)  2
22. HIV-1 isolate 1625 (reverse transcriptase changes: L74V K122E F214L A272P K277R M357T A376T A400T N447S D460N S468T S519N, study 81)  1.9
23. HIV-1 isolate 430 (reverse transcriptase changes: M41L K122E F214L A272P K277R A376T A400T D460N S468T H483Y K512Q S519N, study 103)  1.4
24. HIV-1 isolate 906 (reverse transcriptase changes: M41L D67N K70R E89K K122E F214L T215Y A272P K277R M357T A376T A400T N447S D460N S468T S519N, study 103)  1
25. HIV-1 isolate 927 (reverse transcriptase changes: K122E Q161L F214L A272P K277R M357T A376T A400T N447S D460N S468T S519N, study 103)  1
26. HIV-1 isolate 912 (reverse transcriptase changes: K122E F214L A272P K277R A376T A400T D460N S468T H483Y K512Q S519N, study 103)  1
27. HIV-1 isolate 1381 (reverse transcriptase changes: K122E F214L A272P K277R A376T A400T D460N S468T H483Y K512Q S519N, study 126)  1
28. HIV-1 isolate 491 (reverse transcriptase changes: M41L D67N K70R L92I K122E F214L T215Y A272P K277R M357T A376T A400T N447S D460N S468T S519N, study 103)  0.7
29. HIV-1 isolate 27 (reverse transcriptase changes: M41L D67N K70R W88G K122E F214L T215Y A272P K277R M357T A376T A400T N447S D460N S468T S519N, study 103)  0.4
